# Measurements: IntAct's records for PubMed 18066077
# B1: Ubiquitin-conjugating enzyme E2 L3 (Homo sapiens), P68036-1 (parent)
# chain: MAASRRLMKELEEIRKCGMKNFRNIQVDEANLLTWQGLIVPDNPPYDKGAFRIEINFPAEYPFKPPKITFKTKIYHPNIDEKGQVCLPVISAENWKPATKTDQVIQSLIALVNDPQPEHPLRADLAEEYSKDRKKFCKNAEEFTKKYGEKRPVD
# Variants of: B1
# Conditions: with sopa_salty sopA
row,Variant,effect of a mutation on the interaction
1,F63A,decreasing interaction
